Consider two compounds from article PMC9637222, “Autoinducer-2 and bile salts induce c-di-GMP synthesis to repress the T3SS via a T3SS chaperone” (Nature Communications, 2022).

Molecules are shown by their SMILES. Values joined by “and” are separate entries in the source; they are usually repeats but may differ in a detail not shown here. Equal entries are not always repeated.

For this assay, the system named is promoters of sopB, sopE2, and the sicAsipBCDA operon. Put plainly: Promoter-lacZ fusion β-galactosidase assay. Conditions: 1 μM; for β-Galactosidase (Miller units): strain ΔyedQ, Fig. 4k; for Repression of promoter activities of sopB, sopE2, and sicAsipBCDA (in words): ΔyedQ mutant.

For `C[C@H](CCC(=O)NCCS(=O)(=O)O)[C@H]1CC[C@H]2[C@@H]3[C@H](O)C[C@@H]4C[C@H](O)CC[C@]4(C)[C@H]3C[C@H](O)[C@]12C` [taurocholate], the “Repression of promoter activities of sopB, sopE2, and sicAsipBCDA (in words)” value is “completely abolished”. Moreover, the “β-Galactosidase (Miller units)” value (PsicAsipBCDA) is 1648.43 Miller units and 1718.87 Miller units and 1770.27 Miller units. The “β-Galactosidase (Miller units)” value (PsopB) was 861.75 Miller units and 866.02 Miller units and 837.86 Miller units. The “β-Galactosidase (Miller units)” value (PsopE2) is 1038.86 Miller units and 1126.56 Miller units and 1128.41 Miller units.

For the compound `C[C@H](CCC(=O)NCCS(=O)(=O)O)[C@H]1CC[C@H]2[C@@H]3CC[C@@H]4C[C@H](O)CC[C@]4(C)[C@H]3C[C@H](O)[C@]12C` [taurodeoxycholate], the “Repression of promoter activities of sopB, sopE2, and sicAsipBCDA (in words)” value is on record as “completely abolished”.
